According to US20140050778A1, “NUCLEIC ACID BINDING COMPOUNDS, METHODS OF MAKING, AND USE THEREOF” (UNIVERSITY OF ROCHESTER, priority 2010, published 2014):

Test system: (CUG)10 RNA (SEQ ID NO: 3)
Assay: SPR binding to immobilized biotinylated RNA
Conditions: binding to (CUG)10
Experimental: SPR binding measurements were performed on a Biacore-X instrument (Biacore, Inc., Uppsala, Sweden) with two flow channels (FC1 and FC2). 5′-Biotinylated-RNA sequences, with a C6 linker separating the biotin label from the RNA (Integrated DNA Technologies Inc.) were immobilized on streptavidin (Rockland Immunochemicals) functionalized carboxylmethyl dextran coated sensor chips (CM5, G.E. Healthcare) using EDC/NHS (Advanced ChemTech) coupling chemistry. Filtered (0.2μ), degassed and autoclaved HBS-N buffer (0.01M Hepes, pH=7.4, 0.15 M NaCl) was employed as sample and as running buffer for all SPR experiments. A typical protocol for an experiment is as follows: A CM5 sensor chip was allowed to equilibrate to room temperature and then docked into the instrument. […] Binding measurements were performed by flowing various concentrations of the compounds to be analyzed over the immobilized RNA and recording the reference-subtracted (FC2−FC1) sensorgrams. […]
This technique allows the association and dissociation rates (ka and kd), equilibrium binding constants (KD), and the binding stoichiometry (n) to be measured in a label-free format (Liu and Wilson, “Quantitative Analysis of Small Molecule-nucleic Acid Interactions with a Biosensor Surface and Surface Plasmon Resonance Detection,” Methods Mol. Biol. 613:1-23 (2010), which is hereby incorporated by reference in its entirety).

| SMILES | Hill coefficient |
| --- | --- |
| CCc1nc2cc3ccccc3cc2cc1C(=O)N1CCC[C@H]1C(=O)N[C@@H](C/C=C/C[C@H](NC(=O)[C@@H]1CCCN1C(=O)c1cc2cc3ccccc3cc2nc1CC)C(=O)N[C@@H](CCCCN)C(=O)NCCCN)C(=O)N[C@@H](CCCCN)C(=O)NCCCN [Compound 5] | 1.5 |
| CCc1nc2cc3ccccc3cc2cc1C(=O)N1CCC[C@H]1C(=O)N[C@@H](C/C=C\C[C@H](NC(=O)[C@@H]1CCCN1C(=O)c1cc2cc3ccccc3cc2nc1CC)C(=O)N[C@@H](CCCCN)C(=O)NCCCN)C(=O)N[C@@H](CCCCN)C(=O)NCCCN [Compound 4] | 1.9 |
